The test system of the data set is cancer. Description: Typical cases treated by oral capsules and injections. The class given is in vivo, human. The conditions noted are these: Patient Xu, before or after injection. The procedure: 1. The oral capsules were composed of bicycloplatin and adjuvant. The patients took the oral capsules containing 20-30 mg of bicycloplatin.
2. Injections of bicycloplatin water solution at the concentration of 1% in 5 ml per ampoule. Bicycloplatin water solution was dissolved in 100 ml injection containing 5% of glucose and 0.9% of sodium chloride and injected intravenously once every two days, two ampoules every time. 100 ml of sodium chloride injection should be transfused after the dripping of bicycloplatin. A course of treatment took 6 times (12 ampoules). The second course of treatment began after an interval of two weeks. After three consecutive courses of treatment, general examination was taken.

On to “double 1,1-cyclobutane dicarboxylic acid diaminoplatin complex [bicycloplatin]”, for which the nausea and vomiting result was “didn't occur”.
